Reference: article PMC4496674, “Tackling Critical Catalytic Residues in Helicobacter pylori L-Asparaginase” (Biomolecules, 2015)

System: NC(=O)C[C@H](N)C(=O)O
Assay: purified protein
Conditions: 50 mM HEPES pH 7.5, 37 °C, hyperbolic

HpASNase (Helicobacter pylori 26695; E289A)
K0.5: 0.17 ± 0.02 mM | kcat: 0.44 s⁻¹ | kcat/Km: 2600 M⁻¹ s⁻¹
